Reference: patent US20140179594A1, “STREPTOCOCCUS BACTERIOPHAGE LYSINS FOR TREATMENT OF GRAM POSITIVE BACTERIA IN COMPANION ANIMALS AND LIVESTOCK” (priority 2011, published 2014)

System: S. suis strain 7997
Assay: PlySs2 biochemical characterization, OD600 turbidity
Conditions: very low concentrations of EDTA, 15 mM Na3PO4 pH 8.0

B1: PlySs2: S. suis prophage lysin from strain 89/1591, amino acid sequence SEQ ID NO:3 (protein, listed as Streptococcus suis)
chain: MTTVNEALNNVRAQVGSGVSVGNGECYALASWYERMISPDATVGLGAGVGWVSGAIGDTISAKNIGSSYNWQANGWTVSTSGPFKAGQIVTLGATPGNPYGHVVIVEAVDGDRLTILEQNYGGKRYPVRNYYSAASYRQQVVHYITPPGTVAQSAPNLAGSRSYRETGTMTVTVDALNVRRAPNTSGEIVAVYKRGESFDYDTVIIDVNGYVWVSYIGGSGKRNYVATGATKDGKRFGNAWGTFK
  effect of EDTA on activity: diminish PlySs2 activity
